In patent US20040072990A1, “Antimicrobial peptides with reduced hemolysis and methods of their use” (priority 2002, published 2004):
Residues, ends and D or L forms follow the SMILES beside them.

Test: Secondary structure by CD spectroscopy
Assay type: physicochemical
Details: for conformation in phosphate buffer: 30 μM peptide, 10 mM sodium phosphate buffer pH 7.2

In the case of CC[C@H](C)[C@@H]1NC(=O)[C@H](Cc2ccccc2)NC(=O)[C@H](CCCCN)NC(=O)[C@H]([C@@H](C)CC)NC(=O)[C@H](Cc2ccccc2)NC(=O)[C@H](CCCCN)NC(=O)[C@H]([C@@H](C)CC)NC(=O)[C@H](Cc2ccccc2)NC(=O)[C@H](CCCCN)NC1=O [Pac-522 C, K F I K F I K F I] (cyclo(KFIKFIKFI); ring closure inferred), the “conformation in phosphate buffer” value is reported as “unordered” and the “conformation in SDS” value is reported as “unordered”.
In the case of CC[C@H](C)[C@@H]1NC(=O)[C@H](Cc2c[nH]c3ccccc23)NC(=O)[C@H](CCCNC(=N)N)NC(=O)[C@H](CCCNC(=N)N)NC(=O)[C@H](Cc2c[nH]c3ccccc23)NC(=O)[C@H](CCCCN)NC1=O [Pac 301 C, K W R R W I] (cyclo(KWRRWI); ring closure inferred), the “conformation in phosphate buffer” value is reported as “unordered” and the “conformation in SDS” value is reported as “unordered”.
For CC[C@H](C)[C@@H]1NC(=O)[C@H](Cc2c[nH]c3ccccc23)NC(=O)[C@H](CCCCN)NC(=O)[C@H]([C@@H](C)CC)NC(=O)[C@H](Cc2c[nH]c3ccccc23)NC(=O)[C@H](CCCCN)NC1=O [Pac-305 C, K W I K W I] (cyclo(KWIKWI); ring closure inferred), the “conformation in phosphate buffer” value was “unordered” and the “conformation in SDS” value was “unordered”.
For CC[C@H](C)[C@@H]1NC(=O)[C@H](Cc2c[nH]c3ccccc23)NC(=O)[C@H](CCCNC(=N)N)NC(=O)[C@H](C(C)C)NC(=O)[C@H](Cc2c[nH]c3ccccc23)NC(=O)[C@H](CCCNC(=N)N)NC(=O)[C@H](CCCNC(=N)N)NC(=O)[C@H](Cc2c[nH]c3ccccc23)NC(=O)[C@H](CCCCN)NC1=O [Pac-525 C, K W R R W V R W I] (cyclo(KWRRWVRWI); ring closure inferred), the “conformation in phosphate buffer” value was “unordered” and the “conformation in SDS” value was “unordered”.
For CC[C@H](C)[C@H](NC(=O)[C@H](Cc1ccccc1)NC(=O)[C@H](CCCCN)NC(=O)[C@@H](NC(=O)[C@H](Cc1ccccc1)NC(=O)[C@H](CCCCN)NC(=O)[C@@H](NC(=O)[C@H](Cc1ccccc1)NC(=O)[C@@H](N)CCCCN)[C@@H](C)CC)[C@@H](C)CC)C(N)=O [Pac-522 L, K F I K F I K F I] (H-KFIKFIKFI-NH2; N-terminus assumed), the “conformation in phosphate buffer” value was “unordered” and the “conformation in SDS” value was “slightly ordered”.
